Measured values from several laboratories, pooled; numbers as filed in NIAID ChemDB.

All rows: whole-cell or culture tests; species: Mycobacterium tuberculosis

For "inactive" no cut-off is given. Two numbers with a dash give a range or band. ECn is the concentration giving n% inhibition of infection, replication or growth. Blank or dashed fields: not listed here. MIC50, MIC90 and the like: level of inhibition, or share of isolates inhibited. MIC bound: limit read from a one-dose screen. Inhibition is in % at the dose shown (toxicity tests: loss of growth or viability). Neighbouring rows are from separate reports.

compound,method,cells,tested at,strain,read-out,result
CC1=NN(C(=O)c2ccncc2)C(O)(C(F)(F)F)C1,,,,RGH102,MIC,366.3 µM
Cc1ccc(NCCN(C)CC(C)O)c2c(=O)c3ccc(Cl)cc3sc12,BACTEC,,,H37Rv,MIC bound,>12.5 µg/mL
Cn1c(=O)c(N)c(-c2ccccc2)c2cc(Cl)ccc21,,,,H37Rv,MIC,>6.25 µg/mL
COc1c(C)c(O)cc2c1Oc1ccc(CC=C(C)C)c(O)c1C=C2,,,,H37Ra,MIC,12.5 µg/mL
COc1ccc(-c2cc(=O)c3c(O)c(OC)c(O)c(OC)c3o2)cc1,,,,H37Ra,MIC,100 µg/mL
NNC(=O)c1ccc(OCc2nc3ccccc3[nH]2)cc1,BACTEC,,12.5 µg/mL,H37Rv,inhibition,51%
CC(=O)Nc1c(OC(C)=O)nc2ccc([N+](=O)[O-])cc2c1-c1ccccc1,,,6.25 µg/mL,H37Rv,inhibition,0%
CC(=O)NC(C)CCC[C@H](OC(C)=O)[C@@H](COC(C)=O)OC(C)=O,agar,,25 µg/mL,H37Rv,inhibition,100%
CC1(C)CCC[C@](C)([C@H]2CC[C@]3(C)[C@@H]2[C@H](O)C[C@@H]2[C@@]4(C)CC[C@H](O)C(C)(C)[C@@H]4CC[C@]23C)O1,BACTEC,,12.5 µg/mL,H37Rv,inhibition,7%
CC[C@H]1OC(=O)[C@H](C)[C@@H](O[C@H]2C[C@@](C)(OC)[C@@H](O)[C@H](C)O2)[C@H](C)[C@@H](O[C@@H]2O[C@H](C)C[C@H](N(C)C)[C@H]2O)[C@](C)(OC)C[C@@H](C)C(=O)[C@H](C)[C@@H](O)[C@]1(C)O,,,,H37Ra,MIC,0.06–0.5 µg/mL
O=C(Nc1ccc(Cl)c(Cl)c1)c1ccccc1O,,,,My 331/88,MIC,8 µM
Cc1ccc2nc(SCc3ccc(C(F)(F)F)cc3)[nH]c2c1,,,,MY 332/88,MIC,62 µM
Cc1c(F)c(N2CCNC(C)C2)cc2c1c(=O)c(C(=O)O)cn2C1CC1,,,,45 strains (drug-susceptible),MIC50,≤0.5 µg/mL
CC(=O)OC[C@@H](OC(C)=O)[C@H](/C=C/C(O)C(C)[N+](=O)[O-])OC(C)=O,agar,,25 µg/mL,H37Rv,inhibition,inactive
Cc1ccc(NC(=O)c2ccccc2N)cc1C,,,,My 331/88,MIC,>125 µM
Cc1ccc2nc(SCc3cccc(C(F)(F)F)c3)[nH]c2c1,,,,MY 332/88,MIC,32 µM
COc1c(N2CCNC(C)C2)c(F)cc2c(=O)c(C(=O)O)cn(C3CC3)c12,agar,,,MDR-TB,MIC,8.34 µM
N#CCC1CC2CN(c3ccc(N4C[C@H](Cn5ccnn5)OC4=O)cc3F)CC2C1,resazurin,,,H37Rv,MIC,2 µg/mL
C[C@H]1[C@H](NC(=O)/C(=N\OC(C)(C)C(=O)O)c2csc(N)n2)C(=O)N1S(=O)(=O)O,,,,24 strains (drug-susceptible),MIC50,>64 µg/mL
O=C(N[C@@H](CO)C(=O)N/N=C/c1cccc(O)c1O)OCc1ccccc1,resazurin,,,H37Rv,MIC,50 µg/mL
Cc1ccc2nc(SCc3ccc(F)cc3)[nH]c2c1,,,,MY 332/88,MIC,32 µM
CC(C)CCOc1ccc(NC(=S)Nc2ccc(OCCC(C)C)cc2)cc1,resazurin,,,H37Rv,MIC,2.5 µg/mL
O=C(N[C@@H](CO)C(=O)N/N=C/c1ccc(O)cc1O)OCc1ccccc1,resazurin,,,H37Rv,MIC,100 µg/mL
CC1COc2c(N3CCN(C)CC3)c(F)cc3c(=O)c(C(=O)O)cn1c23,,,,45 strains (drug-susceptible),MIC90,1 µg/mL
CCCCCCCCCCCCOC(=O)c1cc(O)c(O)c(O)c1,,,,,MIC90,64 µg/mL
CO[C@@]12[C@H](COC(N)=O)C3=C(C(=O)C(C)=C(N)C3=O)N1C[C@H]1[C@@H]2N1C(=O)/C=C/c1ccccc1,BACTEC,,,H37Rv,MIC bound,≤12.5 µg/mL
CC(=O)NC[C@H]1CN(c2ccc(N3CC4CC(CC#N)CC4C3)c(F)c2)C(=O)O1,resazurin,,,H37Rv,MIC,1 µg/mL
CC(C)(C)OC(=O)N[C@@H](CO)C(=O)N/N=C/c1cc(O)ccc1O,resazurin,,,H37Rv,MIC,>100 µg/mL
O=[N+]([O-])c1nccn1CCCNc1ccnc2cc(Cl)ccc12,,,,H37Rv,MBC,3.1–18.4 µg/mL
c1ccc(CCN2CCN([C@@H](Cc3ccccc3)CN3CCCC3CN3CCNC[C@@H]3Cc3ccccc3)C[C@H]2Cc2ccccc2)cc1,broth dilution,,,H37Rv,MIC,3.9 µg/mL
Cc1ccc2nc(SCc3cccc(Cl)c3)[nH]c2c1,,,,MY 332/88,MIC,62 µM
CN(C)C(=S)SCN1C(=O)c2ccccc2C1=O,,VERO,,H37Rv,MIC,1.6 µg/mL
O=c1oc2ccccc2c(=O)n1-c1cccc([N+](=O)[O-])c1,,,,My 331/88,MIC,31 µM
CC1(C)S[C@@H]2[C@H](NC(=O)C(C(=O)O)c3ccccc3)C(=O)N2[C@H]1C(=O)O,,,,9 strains (MDR),MIC50,>256 µg/mL
CC(=O)NS(=O)(=O)c1ccc(N=NC2C(=O)N(C(=O)c3cccnc3)N=C2C)cc1,BACTEC,,,H37Rv,MIC bound,>12.8 µg/mL
CCc1nc2ccccc2n1CCCCNc1ccc(OC)cc1,turbidity / fluorescence,,,H37Rv,MIC99,1.4 µM
S=C1NC[C@H](Cc2ccccc2)N1C[C@@H]1CCCN1C[C@H](Cc1ccccc1)N1C[C@H](Cc2ccccc2)N(CC23CC4CC(CC(C4)C2)C3)C1=S,broth dilution,,,H37Rv,MIC,3.13 µg/mL
COC(=O)[C@H]1[C@H]2C[C@@H]3c4[nH]c5cc(OC)ccc5c4CCN3C[C@H]2C[C@@H](OC(=O)/C=C/c2cc(OC)c(OC)c(OC)c2)[C@@H]1OC,,,,,MIC90,64 µg/mL
Cc1c(-[n+]2ccccc2)c(=O)[nH]c2ccccc12,,,,H37Rv,MIC,>6.25 µg/mL
COc1cc(-c2cc(=O)c3c(OC)c(OC)c(OC)c(OC)c3o2)cc(OC)c1OC,BACTEC,,12.5 µg/mL,H37Rv,inhibition,-1%
Cc1ccc2[nH]c(=S)[nH]c2c1,,,,MY 332/88,MIC,>250 µM
CC(=O)C(=Cc1ccc(O[C@@H]2O[C@H](CO)[C@@H](O)[C@H](O)[C@H]2O)cc1)C(C)=O,resazurin,,6.25 µg/mL,H37Rv,inhibition,2%
O=C(Nc1cccc(F)c1)c1ccccc1O,,,,My 331/88,MIC,31 µM
CC(C)(C)OC(=O)N[C@@H](CO)C(=O)N/N=C/c1ccccc1O,resazurin,,,H37Rv,MIC,>100 µg/mL
OC[C@H]1O[C@H](c2nn(-c3ccccc3)[n+](-c3ccccc3)n2)[C@@H](O)[C@H]1O,BACTEC,,,H37Rv,MIC bound,>12.5 µg/mL
O=C(N[C@@H](CO)C(=O)N/N=C/c1ccccc1O)OCc1ccccc1,resazurin,,,H37Rv,MIC,>100 µg/mL
CC(=O)OC[C@@H](OC(C)=O)[C@H](/C=C/CC[N+](=O)[O-])OC(C)=O,agar,,12.5 µg/mL,H37Rv,inhibition,100%
CC(=O)n1nc(Cl)c2cccnc2c1=O,resazurin,,,H37Rv,MIC bound,>6.25 µg/mL
Nc1ccccc1C(=O)Nc1ccccc1,,,,My 331/88,MIC,>1000 µM
CC(C(=O)c1ccc(O)cc1)(c1nc2nnc(N)n2[nH]c1=O)c1nc2nnc(N)n2[nH]c1=O,BACTEC,,12.5 µg/mL,H37Rv,inhibition,0%
O=c1[nH]c2ccc(Cl)cc2c(-c2ccccc2)c1-[n+]1ccccc1,,,,H37Rv,EC50,>6.25 µg/mL
CC(=O)NCCCC[C@H](OC(C)=O)[C@@H](COC(C)=O)OC(C)=O,agar,,25 µg/mL,H37Rv,inhibition,100%
Cc1ccc2nc(SCc3ccc([N+](=O)[O-])cc3)[nH]c2c1,,,,MY 332/88,MIC,32 µM
CC(C)C(OC(=O)c1cc(NC(=S)c2ccccc2)ccc1Cl)C(C)C,BACTEC,,12.5 µg/mL,H37Rv,inhibition,61%
CO[C@H]1/C=C/O[C@@]2(C)Oc3c(C)c(O)c4c(O)c(c(/C=N/N5CCN(C)CC5)c(O)c4c3C2=O)NC(=O)/C(C)=C\C=C\[C@H](C)[C@H](O)[C@@H](C)[C@@H](O)[C@@H](C)[C@H](OC(C)=O)[C@@H]1C,,,,Isolate 17,MIC,<0.03 µg/mL
CCC[N+]12CC=C3COC(=O)C(C)(O)C(C)(O)C(C)C(=O)OC(CC1)C32.[Br-],BACTEC,,12.5 µg/mL,H37Rv,inhibition,10%
OCC(CN1CCN([C@@H](Cc2ccccc2)CN2CCCC2CN2CCNC[C@@H]2Cc2ccccc2)C[C@@H]1Cc1ccccc1)c1ccccc1,broth dilution,,,H37Rv,MIC,3.9 µg/mL
NNC(=O)c1ccncc1,resazurin,,,H37Rv,MIC,0.03–0.06 µg/mL
CO[C@H]1/C=C/O[C@@]2(C)Oc3c(C)c(O)c4c(O)c(c5c(c4c3C2=O)NC2(CCN(CC(C)C)CC2)N=5)=NC(=O)/C(C)=C\C=C\[C@H](C)[C@H](O)[C@@H](C)[C@@H](O)[C@@H](C)[C@H](OC(C)=O)[C@@H]1C,,,,4 isolates (HIS526ARG),MIC,>5 µg/mL
COc1ccc(-n2c(=O)[nH]c3ccccc3c2=O)cc1,,,,My 331/88,MIC,>500 µM
CC(=O)NCCCC[C@@H](OC(C)=O)[C@@H](COC(C)=O)OC(C)=O,agar,,25 µg/mL,H37Rv,inhibition,100%
CCC(C)C(NC(=O)C(Cc1ccc(O)cc1)NC(=O)C(N)C(C)C)C(=O)NC(Cc1cnc[nH]1)C(=O)N1CCCC1C(=O)NC(Cc1ccccc1)C(=O)OC,BACTEC,,,H37Rv,MIC bound,>12.5 µg/mL
CC(=O)OC[C@@H](OC(C)=O)[C@H](/C=C/C=C/[N+](=O)[O-])OC(C)=O,agar,,25 µg/mL,H37Rv,inhibition,inactive
C[C@@H]1CN(c2c(F)c(N)c3c(=O)c(C(=O)O)cn(C4CC4)c3c2F)C[C@H](C)N1,,,,Isolate 11,MIC,0.25 µg/mL
Oc1c(Cl)cc(Cl)cc1Sc1cc(Cl)cc(Cl)c1O,,,,,MIC50,32 µg/mL
Cc1c2c(cc3c1[nH]c1ccccc13)C(C(F)(F)F)=NCC2,resazurin,,6.25 µg/mL,H37Rv,inhibition,52%
Cc1ccc2nc(SCc3ccc([N+](=O)[O-])cc3[N+](=O)[O-])[nH]c2c1,,,,MY 332/88,MIC,8 µM
C/C(=N/NC(=S)NCc1ccccc1)c1nccnc1C,,,,EMB-R,MIC,3.1 µg/mL
O=C(c1ccncc1)N1N=C(c2ccco2)CC1(O)C(F)(F)F,,,,H37Rv,MIC,9.6 µM
CC(=O)NCC(CC[C@H](OC(C)=O)[C@@H](COC(C)=O)OC(C)=O)OC(C)=O,agar,,25 µg/mL,H37Rv,inhibition,inactive
COc1ccc(CCN2C(=O)C(=O)N(c3ccc([N+](=O)[O-])cc3)C2=O)cc1OC,BACTEC,,12.5 µg/mL,H37Rv,inhibition,77%
CNCCOc1ccc(C(c2ccc(OC)cc2)c2cccnc2)cc1,,,,H37Rv,MIC,>25 µg/mL
O=C(N[C@@H]1COc2nc([N+](=O)[O-])cn2C1)Oc1ccc(OC(F)(F)F)cc1,low oxygen,,,H37Rv,MIC,>64 µM
NNC(=O)c1ccncc1,,,,Isolate UT3174 (deletion),MIC,>256 µg/mL
CCC1C(OC)=CC2(CC)CC1(OC)OC2=O,BACTEC,,,H37Rv,MIC bound,>12.5 µg/mL
NC[C@H]1O[C@H](O[C@H]2[C@H](O)[C@@H](O)[C@H](N)C[C@@H]2N)[C@H](N)[C@@H](O)[C@@H]1O,resazurin / absorbance,,,H37Rv,MIC,0.55 µM
O=C1CSC=NN1c1ccccc1,resazurin,,6.25 µg/mL,H37Rv,inhibition,52%
Nc1c(-c2ccccc2)c2cc([N+](=O)[O-])ccc2[nH]c1=O,,,6.25 µg/mL,H37Rv,inhibition,0%
C=CCNC(=S)NC=C(C(N)=O)C(N)=O,resazurin,,6.25 µg/mL,H37Rv,inhibition,1%
CCCCCc1nc2c(C)c3c4c(c2o1)[C@@H](C)CC[C@@H]4[C@@H](C)C[C@H]3C=C(C)C,,,,H37Rv,MIC,12.5 µg/mL
O=C(Nc1cccc([N+](=O)[O-])c1)c1ccccc1O,,,,My 331/88,MIC,16 µM
O=C(c1ccncc1)N1N=CCC1(O)C(F)(F)F,,,,RGH104,MIC,24.13 µM
NNC(=O)c1ccncc1,,,,Isolate 1,MIC,>32 µg/mL
Cc1c(N)c(=O)[nH]c2ccccc12,,,6.25 µg/mL,H37Rv,inhibition,0%

A second listing of 10 rows from above:

compound	method	cells	tested at	strain	read-out	result
O=[N+]([O-])c1nccn1CCCNc1ccnc2cc(Cl)ccc12				H37Rv	MBC	3.1–18.4 µg/mL
C[C@@H]1CN(c2c(F)c(N)c3c(=O)c(C(=O)O)cn(C4CC4)c3c2F)C[C@H](C)N1				Isolate 11	MIC	0.25 µg/mL
CC1(C)CCC[C@](C)([C@H]2CC[C@]3(C)[C@@H]2[C@H](O)C[C@@H]2[C@@]4(C)CC[C@H](O)C(C)(C)[C@@H]4CC[C@]23C)O1	BACTEC		12.5 µg/mL	H37Rv	inhibition	7%
NC[C@H]1O[C@H](O[C@H]2[C@H](O)[C@@H](O)[C@H](N)C[C@@H]2N)[C@H](N)[C@@H](O)[C@@H]1O	resazurin / absorbance			H37Rv	MIC	0.55 µM
Cc1ccc2nc(SCc3ccc(F)cc3)[nH]c2c1				MY 332/88	MIC	32 µM
O=C(N[C@@H](CO)C(=O)N/N=C/c1ccccc1O)OCc1ccccc1	resazurin			H37Rv	MIC	>100 µg/mL
c1ccc(CCN2CCN([C@@H](Cc3ccccc3)CN3CCCC3CN3CCNC[C@@H]3Cc3ccccc3)C[C@H]2Cc2ccccc2)cc1	broth dilution			H37Rv	MIC	3.9 µg/mL
OCC(CN1CCN([C@@H](Cc2ccccc2)CN2CCCC2CN2CCNC[C@@H]2Cc2ccccc2)C[C@@H]1Cc1ccccc1)c1ccccc1	broth dilution			H37Rv	MIC	3.9 µg/mL
Cc1c2c(cc3c1[nH]c1ccccc13)C(C(F)(F)F)=NCC2	resazurin		6.25 µg/mL	H37Rv	inhibition	52%
CC(=O)NC(C)CCC[C@H](OC(C)=O)[C@@H](COC(C)=O)OC(C)=O	agar		25 µg/mL	H37Rv	inhibition	100%